One molecule from article PMC13638050 (PLOS Biology, 2026) can be followed below.

The assay concerns the target H1 stem (recombinant HA stem construct #4900 designed based on H1N1 A/Brisbane/59/2007 HA) (influenza A virus H1N1 …, biotin on the BirA biotinylation site (BirA kit)). The assay is described as follows: BLI. The following applies: both partners purified.

B1: somatic 310-18G10 Fab with VH N35 reverted to VH S35 (Fab, V domains shown)
VH: QVQLVQSGAEVKKPGSSVKVSCKASGVTFSGYAISWVRQAPGQGLEWMGGISPLFGTPNLAQKFQGRVTFTADKSTSTDYMEVSSLRSEDTAVYYCVSTSEPGGLAVAGSRYFDYWGQGTLLTVSS
VL: LSVSPGERATLSCRASQSVSSNLAWYQQKPGQAPRLLIYGASTRAAGIPARFSGSGSGTEFTLTISSLQSEDFAVYYCQQYNDWPRTFGQGTKVEIR
Regarding B1, the “fold weakening of the binding affinity against somatic 310-18G10” value is ~4 fold.
